PubChem BioAssay AID624099 – ICCB-Longwood | 2012

Aim: 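Host factors E2 relies on to silence an HPV18 LCR reporter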 (primary screen)
Cells: human C33A cervical carcinoma cells (HPV-negative) stably expressing BPV1 E2 and an HPV18 LCR luciferase reporter
Reagents: siRNA pool against human genes, 40 nM
Time to read-out: 72 h
Measurement: 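Per-well luciferase luminescence, z-scored on each plate against the plate mean and SD with control wells left out, then averaged across three replicate plates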
Reading the numbers: mean z-score and z-score: higher = stronger reporter signal, weaker E2 silencing
Rule for the call: 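Hit if mean z-score reaches 2 and two or more of three replicate z-scores also reach 2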
The deposit covers about 21,000 reagents; shown is a random part of them. Of all reagents, 497 (2.4%) are marked active. 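Higher z means weaker E2 silencing; only reporter increases were scored, and knock-downs that hurt cell survival may mask genuine repressor factors.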 Unmarked entries are inactive.

PRG4 (proteoglycan 4) | mean z-score = -1.37; z-score, replicate A = -1.14; z-score, replicate B = -1.51; z-score, replicate C = -1.44
GYG2 (glycogenin 2) | mean z-score = 1.14; z-score, replicate A = 1.3; z-score, replicate B = 1.17; z-score, replicate C = 0.94
SLC14A2 | mean z-score = 0.68; z-score, replicate A = 0.39; z-score, replicate B = 1.25; z-score, replicate C = 0.4
FAM162A (family with sequence similarity 162 member A) | mean z-score = 1.01; z-score, replicate A = 1.33; z-score, replicate B = 0.86; z-score, replicate C = 0.82
SH3KBP1 (SH3 domain containing kinase binding protein 1) | mean z-score = 0.25; z-score, replicate A = 0.37; z-score, replicate B = 0.07; z-score, replicate C = 0.32
CD109 (CD109 molecule) | mean z-score = -0.37; z-score, replicate A = -0.48; z-score, replicate B = 0.02; z-score, replicate C = -0.65
CER1 (cerberus 1, DAN family BMP antagonist) | mean z-score = -0.27; z-score, replicate A = -0.27; z-score, replicate B = -0.43; z-score, replicate C = -0.1
RAB41 (RAB41, member RAS oncogene family) | mean z-score = -0.31; z-score, replicate A = -0.55; z-score, replicate B = 0.17; z-score, replicate C = -0.56
FLJ45966 (retired record) | mean z-score = -0.08; z-score, replicate A = -0.33; z-score, replicate B = -0.12; z-score, replicate C = 0.21
LINC01010 (long independently transcribed non-coding RNA 1010) | mean z-score = 0.69; z-score, replicate A = 0.38; z-score, replicate B = 0.75; z-score, replicate C = 0.96
BRD3 (bromodomain containing 3) | mean z-score = 0.2; z-score, replicate A = 0.36; z-score, replicate B = 0.04; z-score, replicate C = 0.2
PTBP1 (polypyrimidine tract binding protein 1) | mean z-score = 0.68; z-score, replicate A = 0.59; z-score, replicate B = 0.85; z-score, replicate C = 0.59
TSEN15 (tRNA splicing endonuclease subunit 15) | mean z-score = -0.44; z-score, replicate A = -0.74; z-score, replicate B = -0.24; z-score, replicate C = -0.34
RARS1 (arginyl-tRNA synthetase 1) | mean z-score = 0.35; z-score, replicate A = 0.33; z-score, replicate B = 0.38; z-score, replicate C = 0.36
AQP1 (aquaporin 1 (Colton blood group)) | mean z-score = -1.04; z-score, replicate A = -1.13; z-score, replicate B = -0.87; z-score, replicate C = -1.13
TTC9C (tetratricopeptide repeat domain 9C) | mean z-score = 0.4; z-score, replicate A = 0.64; z-score, replicate B = 0.4; z-score, replicate C = 0.15
NLRP14 (NLR family pyrin domain containing 14) | mean z-score = -0.12; z-score, replicate A = 0.25; z-score, replicate B = -0.31; z-score, replicate C = -0.32
SSX9P (SSX family member 9, pseudogene) | mean z-score = -0.4; z-score, replicate A = -0.26; z-score, replicate B = -0.62; z-score, replicate C = -0.3
TNFRSF10B (TNF receptor superfamily member 10b) | mean z-score = 0.7; z-score, replicate A = 0.8; z-score, replicate B = 0.64; z-score, replicate C = 0.65
THUMPD1 (THUMP domain 1 NAT10 acetyltransferase adaptor) | mean z-score = 0.5; z-score, replicate A = 0.43; z-score, replicate B = 0.63; z-score, replicate C = 0.45
SPANXC (SPANX family member C) | mean z-score = 0.88; z-score, replicate A = 0.79; z-score, replicate B = 0.84; z-score, replicate C = 1.03

Ordered by “z-score, replicate A” (highest first): some entries from above
GYG2 (glycogenin 2) | mean z-score = 1.14; z-score, replicate A = 1.3; z-score, replicate B = 1.17; z-score, replicate C = 0.94
SLC14A2 | mean z-score = 0.68; z-score, replicate A = 0.39; z-score, replicate B = 1.25; z-score, replicate C = 0.4
